Measured values from several laboratories, pooled; numbers as filed in NIAID ChemDB.

All rows: whole-cell or culture tests; agent: Herpes simplex virus 1; cell line: HEL; read-out: EC50

An empty or dashed field is not shown. Lines come from different laboratories, so protocols vary. ECn: concentration that inhibits the pathogen or its effect by n%.

structure	strain	changes	read by	result
O=c1[nH]c(=O)n([C@@H]2O[C@H](CO)[C@@H](O)[C@@H]2O)cc1I	-	-	plaque count	23.5 µM
O=C(O)P(=O)(O)O	KOS HPMPC-resistant	-	cytopathic effect	14.6 µg/mL
O=c1[nH]c(=O)n([C@@H]2O[C@H](CO)[C@@H](O)[C@H]2O)cc1/C=C/Br	-	-	plaque count	>917 µM
CCOC(=O)c1cc(O)c(O)c(O)c1	KOS	-	plaque count	6.1 µg/mL
O=c1[nH]c(=O)n([C@@H]2O[C@H](CO)[C@@H](O)[C@@H]2F)cc1I	-	-	plaque count	0.073 µM
Nc1nc2c(ncn2CCC(CO)CO)c(=O)[nH]1	KOS PMEA-resistant	-	cytopathic effect	0.14 µg/mL
Nc1nc2c(ncn2CCC(CO)CO)c(=O)[nH]1	ACV-resistant	-	cytopathic effect	>20 µg/mL
Nc1ncnc2c1ncn2C[C@@H](CO)OCP(=O)(O)O	KOS HPMPA-resistant	-	cytopathic effect	1.8 µg/mL
Nc1nc2c(ncn2COC(CO)CO)c(=O)[nH]1	PCV-resistant/B	-	cytopathic effect	0.85 µg/mL
C[C@H](NP(=O)(N[C@@H](C)C(=O)OC(C)(C)C)OC[C@H]1O[C@@H](n2cnc(C(N)=O)c2N)[C@H](O)[C@@H]1O)C(=O)OC(C)(C)C	KOS	TK-	cytopathic effect	>100 µM
Cc1cc(=O)oc2cc(O)c(O)cc12	KOS	-	plaque count	16 µg/mL
C=Cc1cn([C@@H]2O[C@H](CO)[C@@H](O)[C@@H]2F)c(=O)[nH]c1=O	-	-	plaque count	0.074 µM
Nc1ncnc2c1ncn2[C@@H]1O[C@H](CO)C[C@@H]1O	KOS	-	cytopathic effect	11.9 µg/mL
COC(=O)CN(CC(=O)OC)P(=O)(OC[C@H]1O[C@@H](n2cc(/C=C/Br)c(=O)[nH]c2=O)C[C@@H]1O)Oc1ccccc1	KOS	-	-	>100 µM
Nc1ncnc2c1ncn2CCOCP(=O)(O)O	KOS	-	cytopathic effect	11.6 µg/mL
O=c1[nH]cccc1O	B2006 (TK-)	-	plaque count	>200 µg/mL
C[C@H](N)C(=O)OCP(=O)(OC[C@H]1O[C@@H](n2cc(/C=C/Br)c(=O)[nH]c2=O)C[C@@H]1O)Oc1ccccc1	KOS	-	-	0.3 µM
O=c1[nH]c(=O)n([C@H]2C[C@H](O)[C@@H](CO)O2)cc1I	-	-	plaque count	2.63 µM
CC(C)NCC(O)c1ccc(O)c(O)c1	B2006 (TK-)	-	plaque count	66 µg/mL
O=C(O)CP(=O)(O)O	KOS S2242-resistant	-	cytopathic effect	81.7 µg/mL
CCCOC(=O)c1cc(O)c(O)c(O)c1	B2006 (TK-)	-	plaque count	23 µg/mL
Nc1nc(N)c2ncn(CCOCP(=O)(O)O)c2n1	PCV-resistant/A	-	cytopathic effect	3.3 µg/mL
COC(=O)c1cc(O)c(O)c(O)c1	B2006 (TK-)	-	plaque count	6 µg/mL
Nc1ccnc2c1ncn2C1CC(O)C(CO)O1	KOS	-	-	>100 µM
Nc1ccn(C[C@@H](CO)OCP(=O)(O)O)c(=O)n1	KOS	-	cytopathic effect	0.55 µg/mL
NCC(O)c1ccc(O)c(O)c1	KOS	-	plaque count	49 µg/mL